Experimental data reported in ChEMBL document CHEMBL1667755, “2-hydroxyisoquinoline-1,3(2H,4H)-diones as inhibitors of HIV-1 integrase and reverse transcriptase RNase H domain: influence of the alkylation of position 4” (Eur J Med Chem, 2011).

Tested on: Human immunodeficiency virus 1
Assay: Selectivity ratio of IC50 for recombinant HIV-1 reverse transcriptase RNase H domain to IC50 for HIV-1 integrase

Work on CCCCCCC1C(=O)N(O)C(=O)c2ccccc21 (configuration not stated) yielded a Ratio IC50 of 3.3.
O=C1c2ccccc2C(CCCc2ccccc2)C(=O)N1O (configuration not stated) gave a Ratio IC50 of 25.7.
O=c1c2ccccc2c(Cc2ccccc2)c(O)n1O gave a Ratio IC50 of 0.4.
With CCC1C(=O)N(O)C(=O)c2ccccc21 (configuration not stated) the Ratio IC50 was 4.5.
In the case of CCCCC1C(=O)N(O)C(=O)c2ccccc21 (configuration not stated), the Ratio IC50 is reported as 0.3.
CC(C)C1C(=O)N(O)C(=O)c2ccccc21 (configuration not stated) was tested, and the Ratio IC50 was 0.52.
Compound Cc1ccc(CC2C(=O)N(O)C(=O)c3ccccc32)cc1 (configuration not stated) has a Ratio IC50 of 23.5.
For CCCC1C(=O)N(O)C(=O)c2ccccc21 (configuration not stated), the Ratio IC50 was 2.2.
CCCCCC1C(=O)N(O)C(=O)c2ccccc21 (configuration not stated) showed a Ratio IC50 of 24.9.
With CCCCCCc1c(O)n(O)c(=O)c2ccccc12 the Ratio IC50 was 0.2.
With O=C1c2ccccc2C(Cc2ccc(C(F)(F)F)cc2)C(=O)N1O (configuration not stated) the Ratio IC50 was 1.8.
In the case of CC1C(=O)N(O)C(=O)c2ccccc21 (configuration not stated), the Ratio IC50 is reported as 11.8.
